Measured values from several laboratories, pooled; numbers as filed in NIAID ChemDB.

All rows: cytotoxicity tests; cells: CEM; read-out: CC50

Conditions beyond the fields shown may differ between rows. CCn is the concentration with n% toxicity to the cells.

Cc1cccc2c1CP(=O)(OC[C@@H]1CC[C@H](n3ccc(=O)[nH]c3=O)O1)CC2 ; value: 104 µM
Nc1ccc2cc(S(=O)(=O)O)cc(O)c2c1N=Nc1ccc(NC(=O)c2ccc(C(=O)Nc3ccc(N=Nc4c(N)ccc5cc(S(=O)(=O)O)cc(O)c45)c(S(=O)(=O)O)c3)cc2)cc1S(=O)(=O)O ; value: 18 µM
CC(=O)OCCOCCN1C(=O)c2cc(-c3ccccc3)sc2N(Cc2ccccc2)S1(=O)=O ; value: >50 µg/mL
CC(=O)Nc1ccc(C=Cc2ccc(NC(=O)Nc3ccc(C=Cc4ccc(NC(C)=O)cc4S(=O)(=O)O)c(S(=O)(=O)O)c3)cc2S(=O)(=O)O)c(S(=O)(=O)O)c1 ; value: 18 µM
C=CCNC(=O)NC1=CSC2=NC(=O)C3(NN12)c1ccccc1-c1ccccc13 ; value: 70 µM
O=C1NS(=O)(=O)N(Cc2ccccc2)c2sc(-c3ccccc3)cc21 ; value: >50 µg/mL
Nc1c(N=Nc2ccc(-c3ccc(N=Nc4c(O)ccc5cc(S(=O)(=O)O)cc(S(=O)(=O)O)c45)cc3)cc2)c(S(=O)(=O)O)cc2cc(S(=O)(=O)O)c(N=Nc3ccccc3)c(O)c12 ; value: >24 µM
Nc1nc2c(ncn2COCCO)c(=O)[nH]1 ; value: >200 µg/mL
O=C(N[C@@H](CO)C(=O)O)c1ccccc1SSc1ccccc1C(=O)N[C@@H](CO)C(=O)O ; value: >100 µM
[N-]=[N+]=NCCCCCCCCCCC(=O)O ; value: 26 µg/mL
C#C[C@H](O)C1=C[C@@H](n2cnc3c(N)ncnc32)[C@H](O)[C@@H]1O ; value: 25 µg/mL
CCCCCCCCCCNC(=O)CC(=O)O ; value: 12 µg/mL
CC(C)(C)[Si](C)(C)OC[C@@H]1CC[C@H](n2cnc3c(=O)n(CC(=O)O)cnc32)O1 ; value: >200 µM
O=C1NC(=S)NNC12c1ccccc1-c1ccccc12 ; value: 44 µM
O=C(O)CCCCCCCCCCCn1cnnc1 ; value: 27 µg/mL
Nc1nc(=O)n([C@@H]2O[C@H](CO)C[C@@H]2F)cc1F ; value: >580 µM
O=c1[nH]c(=O)n([C@@H]2CS[C@H](CO)O2)cc1/C=C/Br ; value: >100 µM
CC(C)C(=O)Oc1ccc(COP(=O)(OCc2ccc(OC(=O)C(C)C)cc2)OP(=O)([O-])OC[C@@H]2C=C[C@H](n3ccc(=O)[nH]c3=O)O2)cc1 ; value: 110 µM
Nc1c(S(=O)(=O)O)cc(S(=O)(=O)O)c2ccc(N=Nc3ccc(/C=C/c4ccc(N=Nc5ccc6c(S(=O)(=O)O)cc(S(=O)(=O)O)c(N)c6c5O)cc4S(=O)(=O)O)c(S(=O)(=O)O)c3)c(O)c12 ; value: 67 µM
Nc1nc(=O)n([C@@H]2CC[C@H](CO)O2)cc1F ; value: 67 µM
OC[C@@H]1C[C@H](n2cnc3c(=S)nc[nH]c32)[C@@H](O)[C@H]1O ; value: >100 µM
CC[C@H](C)[C@@H](CCC(=O)O)NC(=O)c1ccccc1SSc1ccccc1C(=O)N[C@H](CCC(=O)O)[C@@H](C)CC ; value: 60 µM
CC1(C)SCc2nc3ncccc3n21 ; value: 614 µM
O=S(=O)(O)c1cc2ccc1/C=C\c1ccc(cc1S(=O)(=O)O)N=Nc1ccc(c(S(=O)(=O)O)c1)/C=C\c1ccc(cc1S(=O)(=O)O)N=N2 ; value: >145 µM
CC[C@H](C)[C@H](NC(=O)c1ccccc1SSc1ccccc1C(=O)N[C@H](C(=O)O)[C@@H](C)CC)C(=O)O ; value: 140 µM
Clc1cccc(Cl)c1C1SCc2nc3ncccc3n21 ; value: 160 µM
CCCCCCCCCC(=O)Oc1ccc(COP(=O)(OCc2ccc(OC(=O)CCCCCCCCC)cc2)OP(=O)([O-])OC[C@@H]2C=C[C@H](n3ccc(=O)[nH]c3=O)O2)cc1 ; value: 95 µM
Fc1ccccc1C1SCc2nc3ncccc3n21 ; value: >95.9 µM
O=C1NC(SC(SC2=NNC3(C(=O)N2)c2ccccc2-c2ccccc23)=C(SC2=NNC3(C(=O)N2)c2ccccc2-c2ccccc23)SC2=NNC3(C(=O)N2)c2ccccc2-c2ccccc23)=NNC12c1ccccc1-c1ccccc12 ; value: 79 µM
CC(C)=CCOc1cc(NC(=S)c2ccoc2C)ccc1Cl ; value: >20 µM
Nc1ccn([C@H]2CC[C@@H](CO)O2)c(=O)n1 ; value: 28 µM
Cc1cn([C@H]2C=C[C@@H](CO)O2)c(=O)[nH]c1=O ; value: >250 µM
CNOC(=O)Cn1c(=O)c(C)cn([C@@H]2O[C@H](CO[Si](C)(C)C(C)(C)C)[C@@H](O)[C@H]2O[Si](C)(C)C(C)(C)C)c1=O ; value: 19 µM
CSCC[C@H](NC(=O)c1ccccc1SSc1ccccc1C(=O)N[C@@H](CCSC)C(=O)O)C(=O)O ; value: >100 µM
O=C(O)CCCCCCCCCCCc1ncc[nH]1 ; value: >100 µg/mL
O=c1[nH]c(=O)n([C@H]2O[C@@H](CO)[C@H](O)[C@@H]2F)cc1/C=C/Br ; value: >100 µM
Brc1ccccc1C1SCc2nc3ncccc3n21 ; value: >78.3 µM
O=C1c2sc(-c3ccccc3)cc2NS(=O)(=O)N1Cc1ccccc1 ; value: >50 µg/mL
Nc1ncnc2c1ncn2[C@H]1CC[C@@H](CCP(=O)(O)O)O1 ; value: >200 µM
CCCOC(=O)CCCCCCCCC(=O)O ; value: >100 µg/mL
Cc1cc(-c2ccc(N=Nc3ccc4c(S(=O)(=O)O)cc(S(=O)(=O)O)c(N)c4c3O)c(C)c2)ccc1N=Nc1ccc2c(S(=O)(=O)O)cc(S(=O)(=O)O)c(N)c2c1O ; value: 57 µM
COC(=O)CCCCn1c(=O)c(C)cn([C@@H]2O[C@H](CO[Si](C)(C)C(C)(C)C)[C@@H](O)[C@H]2O[Si](C)(C)C(C)(C)C)c1=O ; value: 22 µM
Nc1ccn([C@H]2CS[C@@H](CO)O2)c(=O)n1 ; value: 2 µM
CC[C@H](O)C1=C[C@@H](n2cnc3c(N)ncnc32)[C@H](O)[C@@H]1O ; value: >200 µg/mL
CC(C)[C@@H](/C=C/CO)NC(=O)c1ccccc1SSc1ccccc1C(=O)N[C@H](/C=C/CO)C(C)C ; value: 9 µM
O=C(O)C(SC1=NNC2(C(=O)N1)c1ccccc1-c1ccccc12)SC1=NNC2(C(=O)N1)c1ccccc1-c1ccccc12 ; value: 15 µM
COC(=O)Cn1c(=O)c(C)cn([C@H]2C=C[C@@H](CO[Si](C)(C)C(C)(C)C)O2)c1=O ; value: 28 µM
Cc1cn([C@H]2CC[C@@H](CCP(=O)(O)O)O2)c(=O)[nH]c1=O ; value: >200 µM
CC/C=C\C/C=C\C/C=C\CCCCCCCC(=O)OC[C@@H](CO[C@H]1O[C@H](CS(=O)(=O)O)[C@@H](O)[C@H](O)[C@H]1O)OC(=O)CCCCCCCCCCCCCCC ; value: >300 µg/mL
O=C1CSC2=NC(=O)C3(NN12)c1ccccc1-c1ccccc13 ; value: 95 µM
Cc1cn([C@@H]2O[C@H](CO[Si](C)(C)C(C)(C)C)[C@@H](O)[C@H]2O[Si](C)(C)C(C)(C)C)c(=O)n(CCC(=O)O)c1=O ; value: 25 µM
C=C[C@@H](O)C1=C[C@@H](n2cnc3c(N)ncnc32)[C@H](O)[C@@H]1O ; value: 3.8 µg/mL
CCCCCCCCCC(=O)NCCC(=O)O ; value: 66 µg/mL
COC(=O)Cn1c(=O)c(C)cn([C@@H]2O[C@H](CO[Si](C)(C)C(C)(C)C)[C@@H](O)[C@H]2O[Si](C)(C)C(C)(C)C)c1=O ; value: 14 µM
O=C(O)CCCCCCCCCCCn1cnnn1 ; value: 34 µg/mL
Nc1nc2c(ncn2COC(CO)CO)c(=O)[nH]1 ; value: >50 µg/mL
CCCCCCCOC(=O)CCCCC(=O)O ; value: >100 µg/mL
O=c1ccn([C@H]2C=C[C@@H](CO)O2)c(=O)[nH]1 ; value: >250 µM